Like-named read-outs stand apart in the source and are kept apart here.
System: Salmonella
Format: cell-based
Details: composition listed in Table 1 in presence of the antibiotic; for Colonies showing change in susceptibility / Colonies showing decreasing inhibition zone / Colonies with no change in inhibition zone / Colonies showing increasing inhibition zones: 30 colonies; for % colonies showing increase in inhibition zone: of 30 tested colonies

## CC1COc2c(N3CCN(C)CC3)c(F)cc3c(=O)c(C(=O)O)cn1c23 (stereo not shown) [OFX, Ofloxacin]
1 h
  % of colonies showing change in susceptibility: 50.0%
  Colonies showing change in susceptibility: 15
  Colonies showing decreasing inhibition zone: 1
  Colonies with no change in inhibition zone: 0
  % colonies showing increase in inhibition zone: 96.7%
2 h
  % of colonies showing change in susceptibility: 46.7%
  Colonies showing change in susceptibility: 14
  Colonies showing decreasing inhibition zone: 1
  Colonies with no change in inhibition zone: 0
  % colonies showing increase in inhibition zone: 96.7%

## O=C(O)c1cn(C2CC2)c2cc(N3CCNCC3)c(F)cc2c1=O [CIP, Ciprofloxacin]
1 h
  Colonies showing decreasing inhibition zone: 0
  Colonies showing increasing inhibition zones: 29
  Colonies with no change in inhibition zone: 1
  % colonies showing increase in inhibition zone: 96.7%
2 h
  Colonies showing decreasing inhibition zone: 1
  Colonies showing increasing inhibition zones: 27
  Colonies with no change in inhibition zone: 2
  % colonies showing increase in inhibition zone: 90.0%

## CO/N=C(\C(=O)N[C@@H]1C(=O)N2C(C(=O)O)=C(COC(C)=O)CS[C@H]12)c1csc(N)n1 [CTX, Cefotaxime]
1 h
  % of colonies showing change in susceptibility: 53.3%
2 h
  % of colonies showing change in susceptibility: 53.3%
  Colonies showing decreasing inhibition zone: 0
  Colonies showing increasing inhibition zones: 26
  Colonies with no change in inhibition zone: 4
  % colonies showing increase in inhibition zone: 86.7%

## Trimethoprim-Sulfamethoaxzole [SXT]
1 h
  % of colonies showing change in susceptibility: 40.0%
  Colonies showing change in susceptibility: 12
  Colonies showing decreasing inhibition zone: 1
  Colonies showing increasing inhibition zones: 24
  % colonies showing increase in inhibition zone: 80.0%
2 h
  % of colonies showing change in susceptibility: 40.0%
  Colonies showing change in susceptibility: 12
  Colonies showing decreasing inhibition zone: 2
  Colonies showing increasing inhibition zones: 23
  % colonies showing increase in inhibition zone: 76.7%
